Compound potency records, mixed from different reports. Data source: NIAID ChemDB in PubChem.

Shared fields: whole-cell or culture tests; species: Mycobacterium tuberculosis

Percent inhibition refers to the dose given; in toxicity tests it is the harm to the cells.

structure	strain	cells	tested at	endpoint	mutations	read by	result
COc1cc(Cc2cnc(/N=C3\C(=O)N(CN4CCN(c5ccccn5)CC4)c4ccc(Br)cc43)nc2N)cc(OC)c1OC	-	-	6.25 µg/mL	inhibition	-	BACTEC	62%
CCn1cc(C(=O)O)c(=O)c2cc(F)c(N3CCN(C/C(=N/O)c4ccccc4)CC3)cc21	H37Rv	-	6.25 µg/mL	inhibition	-	-	44%
CC(=O)NC[C@H]1CN(c2ccc(N3CCSCC3)c(F)c2)C(=O)O1	91-2225	-	-	MIC	-	-	0.5 µg/mL
CO[C@H]1/C=C/O[C@@]2(C)Oc3c(C)c(O)c4c(O)c(c5c(c4c3C2=O)NC2(CCN(CC(C)C)CC2)N=5)=NC(=O)/C(C)=C\C=C\[C@H](C)[C@H](O)[C@@H](C)[C@@H](O)[C@@H](C)[C@H](OC(C)=O)[C@@H]1C	H37Rv	-	-	MIC	-	-	0.006 µg/mL
S=C(NCCNC(=S)[S][Sn]([c]1ccccc1)([c]1ccccc1)[c]1ccccc1)[S][Sn]([c]1ccccc1)([c]1ccccc1)[c]1ccccc1	H37Rv	VERO	-	MIC	-	-	0.8 µg/mL
CSc1ccc(-c2cc(CN3CCOCC3)c(C)n2-c2ccc(F)cc2)cc1	H37Rv	-	-	MIC90	-	-	72.47 µM
CN1N=C(c2ccncc2)OC1c1cccc(Cl)c1	16PI	-	-	MIC	-	-	5 µg/mL
N/C(=N/N=C/c1ccc(Br)cc1)c1ccccn1	1062 (THC-resistant)	-	-	MIC	-	-	64 µg/mL
CO[C@H]1/C=C/O[C@@]2(C)Oc3c(C)c(O)c4c(=O)c(c5oc6cc(N7CCN(CC(C)C)CC7)cc(=O)c6nc5c4c3=C2O)NC(=O)/C(C)=C\C=C\[C@H](C)[C@H](O)[C@@H](C)[C@@H](O)[C@@H](C)[C@H](OC(C)=O)[C@@H]1C	FUJII	-	-	MIC	-	-	0.002 µg/mL
CN1N=C(c2ccncc2)OC1c1ccc(Cl)cc1	16PI	-	-	MIC	-	-	>20 µg/mL
COc1cc(Cc2cnc(/N=C3\C(=O)N(CN4CCN(c5ccccc5)CC4)c4ccc(Br)cc43)nc2N)cc(OC)c1OC	-	-	6.25 µg/mL	inhibition	-	BACTEC	51%
O=C(CCC(F)(F)F)N1CC(c2cc(C(F)(F)F)ccn2)C1	H37Rv	THP-1	-	EC50	-	fluorescence	0.25–0.5 µM
CC(=O)Oc1ccc(/C=C/C(=O)O[C@H]2CC[C@@]3(C)C(CC[C@]4(C)C3CC=C3C5CC(C)(C)CC[C@]5(C(=O)O)CC[C@]34C)C2(C)C)cc1OC(C)=O	H37Ra	-	-	MIC	-	resazurin	12.5 µg/mL
COc1ccccc1/C=N/N=C(/N)c1ccccn1	1814 (THC-resistant)	-	-	MIC	-	-	32 µg/mL
CC(=O)Oc1ccc(/C=C/C(=O)O[C@H]2CC[C@@]3(C)C(CC[C@]4(C)C3CC=C3C5CC(C)(C)CC[C@]5(C(=O)O)CC[C@]34C)C2(C)C)cc1	H37Ra	-	-	MIC	-	resazurin	12.5 µg/mL
N/C(=N/N=C/c1ccccc1Br)c1ccccn1	1062 (THC-resistant)	-	-	MIC	-	-	32 µg/mL
N#C/C(=C\c1ccco1)n1nc2ccccc2n1	H37Rv	-	12.5 µg/mL	inhibition	-	-	9%
O=C(c1ccc(Br)cc1)c1ccc(-c2ccc(Br)cc2)cc1	ATCC 27294	-	-	MIC	-	-	≤0.5 µg/mL
O=c1ccc2nc3cc(Br)ccc3sc-2c1	H37Rv	-	-	MIC	-	resazurin	12.5 µg/mL
Cc1ccc(C(=O)c2ccc(-c3ccc(Br)cc3)cc2)cc1	ATCC 27294	-	-	MIC	-	-	≥32 µg/mL
Cc1ccc(/C(CN2CCN(c3cc4c(cc3F)c(=O)c(C(=O)O)cn4C3CC3)CC2)=N\O)cc1	H37Rv	-	6.25 µg/mL	inhibition	-	-	11%
O=c1cc(-c2ccccc2)ss1	H37Rv	-	-	MIC bound	-	BACTEC	>12.5 µg/mL
O=C(O)c1cn(C2CC2)c2cc(N3CCN(c4ccccc4)CC3)c(F)cc2c1=O	-	-	-	MIC50	-	-	2 µg/mL
Cc1ncc(C(C)(O)c2ccc(Cl)cc2)n1Cc1ccccc1	H37Rv	-	-	MIC bound	-	resazurin	>6.25 µg/mL
COc1cc(Cc2cnc(/N=C3\C(=O)N(CN4CCN(c5cccc(Cl)c5)CC4)c4ccc(Br)cc43)nc2N)cc(OC)c1OC	-	-	6.25 µg/mL	inhibition	-	BACTEC	89%
O=C(O)/C(=C\c1ccc(Br)cc1)n1nnc2ccccc21	H37Rv	-	12.5 µg/mL	inhibition	-	-	0%
CCC1CN2CCc3cc(OC)c(OC)cc3C2CC1CC1c2cc(OC)c(OC)cc2CCN1C(=O)[C@@H]1CCCN1C(=O)[C@@H]1CCCN1C(=O)CN(CCCl)CCCl	H37Rv	-	-	MIC bound	-	BACTEC	>12.5 µg/mL
NC[C@@H]1O[C@H](O[C@H]2[C@@H](O)[C@H](O[C@@H]3[C@@H](O)[C@H](N)C[C@H](N)[C@H]3O[C@H]3O[C@H](CO)[C@@H](O)[C@H](O)[C@H]3N)O[C@@H]2CO)[C@H](N)[C@@H](O)[C@@H]1O	MTB15 (S)	-	-	MIC	-	-	1.5 µg/mL
N/C(=N/N=C/c1cccc(F)c1)c1ccccn1	H37Rv	-	-	MIC	-	-	125 µg/mL
CN1C(=O)C(c2c[nH]c3ccccc23)N(C)C(=O)C1c1c[nH]c2ccccc12	H37Rv	-	6.25 µg/mL	inhibition	-	resazurin	-3%
CO[C@H]1/C=C/O[C@@]2(C)Oc3c(C)c(O)c4c(=O)c(c5oc6cc(N7CCN(CC(C)C)CC7)cc(=O)c6nc5c4c3=C2O)NC(=O)/C(C)=C\C=C\[C@H](C)[C@H](O)[C@@H](C)[C@@H](O)[C@@H](C)[C@H](OC(C)=O)[C@@H]1C	H37Rv	-	-	MIC	-	-	0.004 µg/mL
O=C(Cc1csc2nc(-c3ccccc3)cn12)N/N=C/c1cccs1	H37Rv	-	-	MIC	-	-	>12.5 µg/mL
CN(C)CCCN1c2ccc(O)cc2Sc2ccc(Cl)cc21	H37Rv	-	12.5 µg/mL	inhibition	-	BACTEC	99%
O=C(Cc1csc2nc(-c3ccccc3)cn12)N/N=C/c1c(Cl)cccc1Cl	H37Rv	-	-	EC50	-	-	>12.5 µg/mL
Nc1nc2c(C(=O)c3ccco3)nnn2c2cccc(Cl)c12	H37Rv	-	12.5 µg/mL	inhibition	-	BACTEC	11%
COc1ccccc1/C=N/NC(=O)Cc1csc2nc(-c3ccccc3)cn12	H37Rv	-	-	MIC	-	-	>12.5 µg/mL
CN1N=C(c2ccncc2)OC1c1cccc(F)c1	6 PI	-	-	MIC	-	-	>20 µg/mL
NC1=Nc2ncccc2C(=O)NN1	H37Rv	-	6.25 µg/mL	inhibition	-	resazurin	-17%
NNC(=O)c1ccncc1	MTB25 (S)	-	-	MIC	-	-	0.12 µg/mL
COc1cc(Cc2cnc(/N=C3\C(=O)N(CN4CCOCC4)c4ccc(Br)cc43)nc2N)cc(OC)c1OC	-	-	6.25 µg/mL	inhibition	-	BACTEC	94%
N/C(=N/N=C/c1ccccc1Cl)c1ccccn1	1454 (THC-resistant)	-	-	MIC	-	-	16 µg/mL
O=C(NCc1ccc2ccc3cccnc3c2n1)c1ccc[n+](Cc2ccccc2)c1	H37Rv	-	12.5 µg/mL	inhibition	-	BACTEC	10%
O=C(CCCC(F)(F)F)N1CC(c2ccc(F)cc2)C1	H37Rv	THP-1	-	EC50	-	fluorescence	0.05–0.25 µM
C=C(C)[C@@H]1CC[C@]2(C(=O)O)CC[C@]3(C)C(CCC4[C@@]5(C)CC[C@H](OC(=O)/C=C/c6ccccc6)C(C)(C)C5CC[C@]43C)C12	H37Ra	-	-	MIC	-	resazurin	>200 µg/mL
O=C(CCC(F)(F)F)N1CC(c2ccc(F)cc2F)C1	H37Rv	THP-1	-	EC50	-	fluorescence	<0.05 µM
Cc1cccnc1NC(=O)c1csnn1	H37Rv	-	-	MIC bound	-	BACTEC	>12.5 µg/mL
N#C/C(=C/c1cccc2ccccc12)n1nnc2ccccc21	H37Rv	-	12.5 µg/mL	inhibition	-	-	10%
CCn1cc(C(=O)O)c(=O)c2cc(F)c(N3CCN(CC(=O)c4ccc(Br)cc4)CC3)nc21	H37Rv	-	6.25 µg/mL	inhibition	-	-	1%
Nc1cc(O)c(C(=O)O)cc1F	H37Rv	-	-	MIC90	Ciprofloxacin-resistant	resazurin	6.25 µg/mL
Nc1ccc2nc(NCCCO)c3ccccc3c2c1	H37Rv	-	12.5 µg/mL	inhibition	-	BACTEC	76%
CCN(CC)CN1C(=O)/C(=N\c2ncc(Cc3cc(OC)c(OC)c(OC)c3)c(N)n2)c2cc(Br)ccc21	-	-	6.25 µg/mL	inhibition	-	BACTEC	54%
O=C(CCC(F)(F)F)N1CC(c2ccc(OC(F)(F)F)cc2)C1	H37Rv	THP-1	-	EC50	-	fluorescence	0.25–0.5 µM
CC1(C)CC[C@]2(C(=O)O)CC[C@]3(C)C(=CCC4[C@@]5(C)CC[C@H](OC(=O)/C=C/c6ccccc6)C(C)(C)C5CC[C@]43C)C2C1	H37Ra	-	-	MIC	-	resazurin	50 µg/mL
Cc1cc(NS(=O)(=O)c2ccc(Nc3c4ccccc4nc4c(C(=O)Nc5ccc(S(=O)(=O)N=C(N)N)cc5)cccc34)cc2)no1	H37Rv	-	-	MIC bound	-	BACTEC	>12.5 µg/mL
CCn1cc(C(=O)O)c(=O)c2cc(F)c(N3CCN(CC(=O)c4ccc(F)cc4)CC3)cc21	H37Rv	VERO	6.25 µg/mL	inhibition	-	-	97%
NNC(=O)c1ccncc1	H37Rv	-	-	MIC90	-	-	>128 µM
COc1ccc(/C=C2\Oc3c(OC)c(OC)cc(OC)c3C2=O)cc1	H37Rv	-	-	MIC bound	-	BACTEC	>12.5 µg/mL
COc1ccc(OC)c(C2OC(c3ccncc3)=NN2C)c1	16PI	-	-	MIC	-	-	>20 µg/mL
CCCCN(CCCC)CC(C(=O)Nc1ccc([N+](=O)[O-])cc1[N+](=O)[O-])/C(C)=N/NC(=O)C[N+](C)(C)C.[Cl-]	H37Rv	-	12.5 µg/mL	inhibition	-	BACTEC	10%
O=C(CCC(F)(F)F)N1CC(c2cccc(Cl)c2)C1	H37Rv	THP-1	-	EC50	-	fluorescence	<0.05 µM
O=C(O)/C(=C\c1ccccc1)n1nnc2ccccc21	H37Rv	-	12.5 µg/mL	inhibition	-	-	0%
O=[N+]([O-])c1cccnc1N=Nc1c(O)[nH]c2ccccc12	H37Rv	-	12.5 µg/mL	inhibition	-	BACTEC	38%
CCc1ccc(-c2cc(CN3CCOCC3)c(C)n2-c2ccc(F)cc2)cc1	H37Rv	-	-	MIC90	-	-	50.04 µM
COc1ccc(C2OC(c3ccncc3)=NN2C)cc1F	6 PI	-	-	MIC	-	-	>20 µg/mL
NC(=O)/C(=C\c1ccc(Cl)cc1)n1nnc2ccccc21	H37Rv	-	12.5 µg/mL	inhibition	-	-	0%
C/C(=C\CN1C(=O)CN(C)C1=O)CCC1OC1(C)C	H37Rv	-	12.5 µg/mL	inhibition	-	BACTEC	0%
CC1(C)CC[C@]2(C(=O)O)CC[C@]3(C)C(=CCC4[C@@]5(C)CC[C@H](OC(=O)/C=C/c6ccc(O)c(O)c6)C(C)(C)C5CC[C@]43C)C2C1	H37Ra	-	-	MIC	-	resazurin	200 µg/mL
Cc1ccc(C(=O)CN2CCN(c3cc4c(cc3F)c(=O)c(C(=O)O)cn4C3CC3)CC2)cc1	H37Rv	VERO	6.25 µg/mL	inhibition	-	-	101%
CCN(CC)Cc1cc(Nc2c3ccccc3nc3c2[nH]c2ccccc23)cc(CN(CC)CC)c1O	H37Rv	-	6.25 µg/mL	inhibition	-	resazurin	56%
O=C(Cc1csc2nc(-c3ccccc3)cn12)N/N=C/c1ccc([N+](=O)[O-])o1	H37Rv	-	12.5 µg/mL	inhibition	-	-	98%
O=C(O)c1cn(C2CC2)c2cc(N3CCN(Cc4ccccc4)CC3)c(F)cc2c1=O	-	-	-	MIC90	-	-	2 µg/mL
O=C(CCC(F)(F)F)N1CC(C2CC2)C1	H37Rv	THP-1	-	EC50	-	fluorescence	0.05–0.25 µM
O=C(CN1CCN(c2cc3c(cc2F)c(=O)c(C(=O)O)cn3C2CC2)CC1)c1ccccc1	H37Rv	VERO	-	EC50	-	-	<6.25 µg/mL
N/C(=N/N=C/c1ccccc1)c1ccccn1	H37Rv	-	-	MIC	-	-	32 µg/mL
O=C(O)/C(=C\c1ccc(C(F)(F)F)cc1)n1nnc2ccccc21	H37Rv	-	12.5 µg/mL	inhibition	-	-	0%
CC(C)CC(NC(=O)C(C)NC(=O)C(NC(=O)OCc1ccccc1)C(C)O)C(=O)NC(CC(C)C)C(=O)NCC(=O)NN	H37Rv	-	12.5 µg/mL	inhibition	-	BACTEC	0%
Cc1ccc(/C=C(\C(N)=O)n2nc3ccccc3n2)cc1	H37Rv	-	-	EC50	-	-	>12.5 µg/mL
COc1cccc2oc([N+](=O)[O-])cc12	H37Rv	-	-	MIC bound	-	resazurin	<6.25 µg/mL
O=C(c1ccc(Cl)cc1)c1ccc(-c2ccc(Br)cc2)cc1	ATCC 27294	-	-	MIC	-	-	≤0.5 µg/mL

Repeating the final 8 entries:

structure | strain | cells | tested at | endpoint | mutations | read by | result
O=C(CCC(F)(F)F)N1CC(C2CC2)C1 | H37Rv | THP-1 | - | EC50 | - | fluorescence | 0.05–0.25 µM
O=C(CN1CCN(c2cc3c(cc2F)c(=O)c(C(=O)O)cn3C2CC2)CC1)c1ccccc1 | H37Rv | VERO | - | EC50 | - | - | <6.25 µg/mL
N/C(=N/N=C/c1ccccc1)c1ccccn1 | H37Rv | - | - | MIC | - | - | 32 µg/mL
O=C(O)/C(=C\c1ccc(C(F)(F)F)cc1)n1nnc2ccccc21 | H37Rv | - | 12.5 µg/mL | inhibition | - | - | 0%
CC(C)CC(NC(=O)C(C)NC(=O)C(NC(=O)OCc1ccccc1)C(C)O)C(=O)NC(CC(C)C)C(=O)NCC(=O)NN | H37Rv | - | 12.5 µg/mL | inhibition | - | BACTEC | 0%
Cc1ccc(/C=C(\C(N)=O)n2nc3ccccc3n2)cc1 | H37Rv | - | - | EC50 | - | - | >12.5 µg/mL
COc1cccc2oc([N+](=O)[O-])cc12 | H37Rv | - | - | MIC bound | - | resazurin | <6.25 µg/mL
O=C(c1ccc(Cl)cc1)c1ccc(-c2ccc(Br)cc2)cc1 | ATCC 27294 | - | - | MIC | - | - | ≤0.5 µg/mL

Two numbers with a dash give a range or band. ECn is the concentration giving n% inhibition of infection, replication or growth. Blank or dashed fields: not listed here. Rows are shuffled and stem from different studies. MIC bound: limit read from a one-dose screen. A number after MIC or MFC names an inhibition level or a share of isolates.